# Reference: article PMC4703070, “cryo-EM structures of the E. coli replicative DNA polymerase reveal its dynamic interactions with the DNA sliding clamp, exonuclease and τ” (eLife, 2015)
# Numbering of substitutions follows the chain as printed.
# T1: E. coli DNA polymerase III α with improved clamp binding motif (PolIIIα^QLDLF) (E. coli, UniProt P10443 1-1160, 920-924 QADMF to QLDLF)
# T1 construct: DNA polymerase III subunit α (PolIIIα), E. coli; It says that His-tags were removed with 3C protease but not which of the proteins carried one; PDB 2HNH lacks the C-terminal tail; source: E. coli (DE3) BL21, purified (as described in Toste Rêgo et al., 2013)
# T1 sequence (looked up): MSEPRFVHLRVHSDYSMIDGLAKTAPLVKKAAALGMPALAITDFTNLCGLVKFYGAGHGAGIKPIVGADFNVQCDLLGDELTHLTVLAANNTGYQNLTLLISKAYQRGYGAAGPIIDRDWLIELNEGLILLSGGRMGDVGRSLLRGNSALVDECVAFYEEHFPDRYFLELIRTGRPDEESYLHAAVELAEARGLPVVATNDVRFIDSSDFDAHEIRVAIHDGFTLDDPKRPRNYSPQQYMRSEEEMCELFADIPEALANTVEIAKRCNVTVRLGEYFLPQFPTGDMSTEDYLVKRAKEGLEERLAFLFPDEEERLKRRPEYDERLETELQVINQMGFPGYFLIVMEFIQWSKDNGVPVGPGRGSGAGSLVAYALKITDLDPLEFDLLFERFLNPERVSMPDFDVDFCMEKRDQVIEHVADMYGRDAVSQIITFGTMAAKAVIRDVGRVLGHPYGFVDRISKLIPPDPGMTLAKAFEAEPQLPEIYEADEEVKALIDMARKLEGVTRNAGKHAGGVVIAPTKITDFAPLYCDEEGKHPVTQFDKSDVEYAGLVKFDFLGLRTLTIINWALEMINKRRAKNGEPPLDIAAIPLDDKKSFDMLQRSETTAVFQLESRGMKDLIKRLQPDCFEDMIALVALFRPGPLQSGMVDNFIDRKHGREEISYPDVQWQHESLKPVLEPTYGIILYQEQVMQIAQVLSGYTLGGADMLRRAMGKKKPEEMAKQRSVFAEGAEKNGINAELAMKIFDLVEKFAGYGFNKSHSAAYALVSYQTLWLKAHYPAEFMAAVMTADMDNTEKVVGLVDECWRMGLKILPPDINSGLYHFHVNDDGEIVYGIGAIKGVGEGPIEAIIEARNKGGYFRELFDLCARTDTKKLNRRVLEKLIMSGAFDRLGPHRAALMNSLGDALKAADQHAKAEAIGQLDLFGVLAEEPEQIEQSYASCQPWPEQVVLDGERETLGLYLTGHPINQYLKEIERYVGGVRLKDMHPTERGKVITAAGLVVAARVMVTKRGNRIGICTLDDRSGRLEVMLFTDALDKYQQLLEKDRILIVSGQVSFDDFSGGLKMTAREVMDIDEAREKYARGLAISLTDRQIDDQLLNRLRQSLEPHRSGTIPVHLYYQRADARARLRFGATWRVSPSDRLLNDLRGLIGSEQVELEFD
# T2: E. coli DNA polymerase III α, wild type (E. coli, UniProt P10443 1-1160)
# T2 construct: DNA polymerase III subunit α (PolIIIα), E. coli, wild type; parent of m1, whose fitted model covers residues 1-1160; also called PolIIIα; wild-type PolIIIα; source: E. coli (DE3) BL21, purified (as described in Toste Rêgo et al., 2013)
# T2 sequence (looked up): T1 sequence (looked up) with L921A, L923M
# B1: E. coli DNA sliding clamp β (natural protein)
# chain: MKFTVEREHLLKPLQQVSGPLGGRPTLPILGNLLLQVADGTLSLTGTDLEMEMVARVALVQPHEPGATTVPARKFFDICRGLPEGAEIAVQLEGERMLVRSGRSRFSLSTLPAADFPNLDDWQSEVEFTLPQATMKRLIEATQFSMAHQDVRYYLNGMLFETEGEELRTVATDGHRLAVCSMPIGQSLPSHSVIVPRKGVIELMRMLDGGDNPLRVQIGSNNIRAHVGDFIFTSKLVDGRFPDYRRVLPKNPDKHLEAGCDLLKQAFARAAILSNEKFRGVRLYVSENQLKITANNPEQEEAEEILDVTYSGAEMEIGFNVSYVLDVLNALKCENVRMMLTDSVSSVQIEDAASQSAAYVVMPMRL
# notes: DNA polymerase III β subunit (DNA sliding clamp), E. coli; dimeric; It says that His-tags were removed with 3C protease but not which of the proteins carried one; also called β subunit; source: E. coli (DE3) BL21, purified (as described in Toste Rêgo et al., 2013)
# B2: E. coli proofreading exonuclease ε, wild type (enzyme, UniProt P03007 1-243, looked up)
# chain: MSTAITRQIVLDTETTGMNQIGAHYEGHKIIEIGAVEVVNRRLTGNNFHVYLKPDRLVDPEAFGVHGIADEFLLDKPTFAEVADEFMDYIRGAELVIHNAAFDIGFMDYEFSLLKRDIPKTNTFCKVTDSLAVARKMFPGKRNSLDALCARYEIDNSKRTLHGALLDAQILAEVYLAMTGGQTSMAFAMEGETQQQQGEATIQRIVRQASKLRVVFATDEEIAAHEARLDLVQKKGGSCLWRA
# notes: DNA polymerase III subunit ε (proofreading exonuclease), E. coli, wild type; parent of m3; source: E. coli (DE3) BL21, purified (as described in Toste Rêgo et al., 2013)
# Assays:
# Settings in all cases: both partners purified
# [1] = target: T1, E. coli DNA polymerase III α with …; test: cryo-EM structure; four-protein complex assembled at 15 μM, gel filtration in 25 mM Hepes pH 7.5, 50 mM potassium glutamate, 3 mM magnesium acetate, 2 mM DTT; peak fraction (~4 μM) with 20 μM 25 bp DNA substrate; DNA-free (8.3 Å), DNA-bound (8.0 Å) and DNA-bound without tail (7.3 Å) classes from a single data set; crystal and NMR structures fitted as rigid bodies
# [2] = target: B1; test: SEC; 2.4 mL Superdex 200 Increase, 25 mM Hepes pH 7.5, 150 mM NaCl, 2 mM DTT; PolIIIα-clamp-exonuclease complex assembled at 10, 1 and 0.1 μM, 50 μL injected
# [3] = target: T2, E. coli DNA polymerase III α, wild type; test: as above
Binder,binding result [1],binding result [2],binding result [3]
B1,binds,–,–
B2,–,binds,binds
